Pooled drug test results. Numbers come from NIAID ChemDB, via PubChem.

Common to all: target-level tests; species: HIV-1; target: Reverse transcriptase; read-out: IC50

An empty or dashed field is not shown. ICn: concentration for n% inhibition. Conditions beyond the fields shown may differ between rows. a–b is a range or a potency band.

| SMILES | strain or isolate | changes | read by | result |
|---|---|---|---|---|
| O=C1c2ccccc2S[C@H]2[C@@H](O)[C@@H](O)[C@H](O)[C@H](O)CN12 |  |  | RT activity / absorbance | 17.17 µM |
| CC1=CCC[C@H]2[C@](C)(CC3=C(O)C(=O)C(=O)C=C3O)[C@@H](C)CC[C@]12C |  |  |  | 5 µg/mL |
| CCN1c2ncc(CCOc3ccc(-c4ccc(C)[n+]([O-])c4)cc3C)cc2C(=O)N(C)c2cccnc21 | IIIB |  | nucleotide incorporation / radiometric | <0.05 µM |
| COc1c2ccoc2c(S(=O)(=O)OC2CCCCC2)c2oc(C)cc(=O)c12 |  |  | RT activity / radiometric | 0.0000092 µM |
| CCN1c2ncc(CCOc3ccc(C(=O)NN)cc3C)cc2C(=O)Nc2c(C)ccnc21 | IIIB |  | nucleotide incorporation / radiometric | <0.05 µM |
| Nc1sc2c(c1C(=O)Nc1ccc(Cl)cc1)CCCCC2 |  |  | nucleotide incorporation / fluorescence | 39 µM |
| COC(=O)C1=CC[C@H]2C(C(=O)OC)=CC(=O)[C@@H](C(C)C)C[C@H]12 |  |  | nucleotide incorporation / radiometric | 33.13 µg/mL |
| CCN1c2ncc(CCOc3ccc(C(=O)NCc4ccc(C(=O)O)cc4)cc3C)cc2C(=O)N(C)c2cccnc21 | IIIB |  | nucleotide incorporation / radiometric | <0.05 µM |
| Nc1ccc2c(c1)CN(c1nn3c(-c4cccs4)nnc3c3ccccc13)CC2 | IIIB |  | RT activity / fluorescence | 5.18 µM |
| CCc1cc(NCc2nc3c(C)ccc(C)c3o2)c(=O)[nH]c1C |  |  | nucleotide incorporation | 0.047 µM |
| CC(C)Nc1cccnc1N1CCN(C(=O)c2cc3ccccc3[nH]2)CC1 | IIIB |  |  | 0.25 µM |
| CCOP(=O)(OCC)C(O)c1c(-c2cccs2)[nH]c2ccccc12 |  |  | RT activity | 0.00748 µM |
| CCN1c2ncc(CCOc3cccc4c3CCNC4=O)cc2C(=O)Nc2c(C)ccnc21 | IIIB |  | nucleotide incorporation / radiometric | <0.05 µM |
| COc1ccc(OS(=O)(=O)c2c(O)c(-c3cc(C)on3)c(OC)c3ccoc23)cc1 |  |  | RT activity / radiometric | 0.0000053 µM |
| Nc1sc2c(c1C(=O)Nc1ccccn1)CCCCC2 |  |  | nucleotide incorporation / fluorescence | >100 µM |
| CCCCCCCCCCCCCCCC(=O)NCC1OC(n2cnc3c(N)ncnc32)C(OP(=O)(O)OCC2OC(n3cnc4c(N)ncnc43)C(OP(=O)(O)OCCOCn3cnc4c(N)ncnc43)C2O)C1O | IIIB |  | RT activity | <100 µM |
| CCN1c2ncc(CCOc3cccc4c3C(C)(C)OC(=O)N4)cc2C(=O)N(C)c2cccnc21 | IIIB |  | nucleotide incorporation / radiometric | 0.05–0.1 µM |
| CC1=CCC[C@H]2[C@](C)(CC3=CC(=O)C=C(O)C3=O)[C@@H](C)CC[C@]12C |  |  |  | 6.8 µg/mL |
| COc1c(-c2cc(C)[nH]n2)c(O)c(S(=O)(=O)Oc2ccc(F)cc2)c2occc12 |  |  | RT activity / radiometric | 0.0000041 µM |
| CCN1c2ncc(CCOc3ccc4[nH]c(=O)[nH]c4c3)cc2C(=O)N(C)c2cccnc21 | IIIB |  | nucleotide incorporation / radiometric | 0.05–0.1 µM |
| CC1=CCC[C@H]2[C@](C)(Cc3c(O)ccc(O)c3O)[C@@H](C)CC[C@]12C |  |  |  | 7 µg/mL |
| CCCCCCCCCCCCCCCC(=O)NCC1CC(OP(=O)(O)OCC2CC(OP(=O)(O)OCC3CC(O)C(n4cnc5c(N)ncnc54)O3)C(n3cnc4c(N)ncnc43)O2)C(n2cnc3c(N)ncnc32)O1 | IIIB |  | RT activity | >100 µM |
| Nc1ccc2cc(S(=O)(=O)O)cc(O)c2c1N=Nc1ccc(NC(=O)Nc2ccc(N=Nc3c(N)ccc4cc(S(=O)(=O)O)cc(O)c34)c(S(=O)(=O)O)c2)cc1S(=O)(=O)O | RF |  | RT activity | 4.6 µM |
| CCN1c2ncc(CCOc3cccc4c3CN(O)C4=O)cc2C(=O)N(C)c2cccnc21 | IIIB |  | nucleotide incorporation / radiometric | 0.05–0.1 µM |
| COc1ccc2[nH]c(C(=O)N3CCN(c4ncccc4NC(C)C)CC3)cc2c1 | IIIB |  |  | 0.25 µM |
| COc1c(-c2cc(C)n(-c3ccccc3)n2)c(O)c(S(=O)(=O)OC2CCCCC2)c2occc12 |  |  | RT activity / radiometric | 0.0000047 µM |
| O=Cc1c(-c2cccs2)[nH]c2ccccc12 |  |  | RT activity | 0.00938 µM |
| CC(C(=O)CN1CCN(c2ccc(Br)cc2)CC1)N1C(=O)c2ccccc2C1=O |  |  | nucleotide incorporation / radiometric | 63.76 µM |
| Cn1cc(C(=O)O)c(=O)c2cc(N)c(N3CCN(c4ccccn4)CC3)cc21 |  |  |  | 800 µM |
| COc1c2ccoc2c(S(=O)(=O)OC2CCCC2)c2oc(C)cc(=O)c12 |  |  | RT activity / radiometric | 0.0000091 µM |
| FC(F)(F)c1ccc2c(c1)CN(c1nn3c(C4CC4)nnc3c3ccccc13)CC2 | KER2008 |  | RT activity / fluorescence | 2.18 µM |
| O=C1CS[C@@H]2[C@H](O)[C@@H](O)[C@@H](O)[C@H](O)CN12 |  |  | RT activity / absorbance | 6.84 µM |
| NCC1OC(n2cnc3c(N)ncnc32)C(OP(=O)(O)OCC2OC(n3cnc4c(N)ncnc43)C(OP(=O)(O)OCC3OC(n4cnc5c(N)ncnc54)C(O)C3O)C2O)C1O | IIIB |  | RT activity | <100 µM |
| COc1cc(-c2ccc(N=Nc3ccc4c(S(=O)(=O)O)cc(S(=O)(=O)O)c(N)c4c3O)c(OC)c2)ccc1N=Nc1ccc2c(S(=O)(=O)O)cc(S(=O)(=O)O)c(N)c2c1O | RF |  | RT activity | 13 µM |
| CC(C(=O)CN1CCN(c2ccc(C(F)(F)F)cc2)CC1)N1C(=O)c2ccccc2C1=O |  |  | nucleotide incorporation / radiometric | 118 µM |
| CCN1c2ncc(CCOc3ccc(-c4ccc(C(=O)O)c[n+]4[O-])cc3C)cc2C(=O)N(C)c2cccnc21 | IIIB |  | nucleotide incorporation / radiometric | <0.05 µM |
| CN(C)c1ccc2c(c1)CN(c1nn3c(C4CC4)nnc3c3ccccc13)CC2 | KER2008 |  | RT activity / fluorescence | 0.24 µM |
| Cc1c(Sc2ccccc2)n(COCc2ccccc2)c(=O)[nH]c1=O |  |  | RT activity | 4 µM |
| CC(=O)Nc1cc2c(cc1OC(F)(F)F)CCN(c1nn3c(C)nnc3c3ccccc13)C2 | KER2008 |  | RT activity / fluorescence | 0.63 µM |
| CCN1c2ncc(CCOc3cccc4c3CNC(=O)C4)cc2C(=O)N(C)c2cccnc21 | IIIB |  | nucleotide incorporation / radiometric | <0.05 µM |
| O=c1oc(-c2ccc(O)cc2)nc2sc3c(c12)CCCCC3 |  |  | nucleotide incorporation / fluorescence | 21.1 µM |
| CC(C(=O)CN1CCN(c2ccccc2Cl)CC1)N1C(=O)c2ccccc2C1=O |  |  | nucleotide incorporation / radiometric | 126.8 µM |
| Nc1sc2c(c1C(=O)Nc1ccccc1O)CCCCC2 |  |  | nucleotide incorporation / fluorescence | 78 µM |
| CCN1c2ncc(CCOc3cccc4c3CC(=O)N4)cc2C(=O)N(C)c2cccnc21 | IIIB | RT-K103N Y181C | nucleotide incorporation / radiometric | >0.1 µM |
| Cc1nc2ccccc2c(=O)o1 |  |  | nucleotide incorporation / fluorescence | >100 µM |
| O=C1CS[C@@H]2[C@@H](O)[C@@H](O)[C@H](O)[C@H](O)CN12 |  |  | RT activity / absorbance | 28.09 µM |
| CCCOCn1c(Sc2ccccc2)c(C)c(=O)[nH]c1=O |  |  | RT activity | 34 µM |
| COc1c2ccoc2c(S(=O)(=O)Oc2ccc(F)cc2)c2oc(C)cc(=O)c12 |  |  | RT activity / radiometric | 0.0000088 µM |
| CCN1c2ncc(CCOc3cccc4c3COC(=O)N4)cc2C(=O)N(C)c2cccnc21 | IIIB | RT-K103N Y181C | nucleotide incorporation / radiometric | >0.1 µM |
| CCOC(=O)/C=C\c1c(-c2cccs2)[nH]c2ccccc12 |  |  | RT activity | 0.00944 µM |
| O=C1c2ccccc2S[C@H]2[C@H](O)[C@@H](O)[C@H](O)[C@H](O)CN12 |  |  | RT activity / absorbance | 2.11 µM |
| O=c1oc(-c2ccccc2)nc2sc3c(c12)CCCCC3 |  |  | nucleotide incorporation / fluorescence | 37.1 µM |
| COc1ccc(N2CCN(CC(=O)C(C)N3C(=O)c4ccccc4C3=O)CC2)cc1 |  |  | nucleotide incorporation / radiometric | 2530 µM |
| Nc1cc2c(c(N3CCCC3)c1)CCN(c1nn3c(C4CC4)nnc3c3ccccc13)C2 | IIIB |  | RT activity / fluorescence | 8.06 µM |
| CCOCn1c(Sc2ccccc2)c(CC)c(=O)[nH]c1=O |  |  |  | 0.14 µM |
| c1cnc2c(c1)CN(c1nn3c(C4CC4)nnc3c3ccccc13)CC2 | IIIB |  | RT activity / fluorescence | 3 µM |
| COc1c(C(=O)/C=C(/C)Nc2ccccc2)c(O)c(S(=O)(=O)OC2CCCC2)c2occc12 |  |  | RT activity / radiometric | 0.0000079 µM |

The last 7 rows once more:

SMILES	strain or isolate	changes	read by	result
O=C1c2ccccc2S[C@H]2[C@H](O)[C@@H](O)[C@H](O)[C@H](O)CN12			RT activity / absorbance	2.11 µM
O=c1oc(-c2ccccc2)nc2sc3c(c12)CCCCC3			nucleotide incorporation / fluorescence	37.1 µM
COc1ccc(N2CCN(CC(=O)C(C)N3C(=O)c4ccccc4C3=O)CC2)cc1			nucleotide incorporation / radiometric	2530 µM
Nc1cc2c(c(N3CCCC3)c1)CCN(c1nn3c(C4CC4)nnc3c3ccccc13)C2	IIIB		RT activity / fluorescence	8.06 µM
CCOCn1c(Sc2ccccc2)c(CC)c(=O)[nH]c1=O				0.14 µM
c1cnc2c(c1)CN(c1nn3c(C4CC4)nnc3c3ccccc13)CC2	IIIB		RT activity / fluorescence	3 µM
COc1c(C(=O)/C=C(/C)Nc2ccccc2)c(O)c(S(=O)(=O)OC2CCCC2)c2occc12			RT activity / radiometric	0.0000079 µM